# Results of single-concentration screens

The values are deposited in ChEMBL (CHEMBL3988442, “University of Dundee, Small-Polar-MMV Screening Library” (2021)).

Values are the deposited “Percent Effect”, in %. How 0% and 100% were set is not recorded. Most values in the screen are low, and negative values occur. This is part of a subset picked to be rich in strong results.

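Phenotypic screen: M. tuberculosis growth, glucose 7H9 medium, 3 days; the read-out is not stated. Concentration: 500 µM. The record gives no direction; compounds that gave an IC50 in retests scored well above the rest, so higher reads as more growth inhibition. Size under these conditions: about 18,000 compounds, about 1,400 of them at 50% or above in at least one test.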

| structure | effect |
|---|---|
| `COC(C)(C)C(=O)NCc1ccnc(NC2CC2)c1` | 7.01% |
| `COc1ccccc1CCNC(=O)NC[C@H](C)O` | 15.95% |
| `CCNc1ncc(C(=O)N2CCSCC2)cn1` | 28.84% |
| `CNc1snc(C)c1C(=O)N1CCN(C2CC2)CC1` | -0.6201% |
| `COc1cc(Br)ccc1CN` | 7.963% |
| `COc1c(C(=O)N2CCN(C)CC2)sc2ccccc12` | 45.1% |
| `C[C@@]1(O)CCN(C(=O)CCc2cn[nH]c2)C[C@@H]1O` | 5.87% |
| `CCOC(=O)C(CN)CC(C)C` (stereo unspecified) | 9.033% |
| `CCC(CO)Nc1nccc(C(F)(F)F)n1` (stereo unspecified) | 52.72% |
| `CN(C)S(=O)(=O)c1csc(C(=O)N2CCOCC2)c1` | 9.045% |
| `CSc1cc(NC(=O)NCCc2ccccn2)ccn1` | 65.49% |
| `C[C@H](O)CNC(=O)c1ccc(OCC(F)F)cc1` | -0.1073% |
| `CCNCC(=O)Nc1cccc(OC)c1` | 15.31% |
| `CN(CCc1ccncc1)CCN1CCCC1=O` | 10.31% |
| `CC(C1CCN(Cc2ncc[nH]2)CC1)N1CCOCC1` (stereo unspecified) | -4.285% |
| `N#Cc1ncc(N)cc1Cl` | 29.49% |
| `CN(C)[C@@H]1CN(C(=O)c2ccnc(O)c2)C[C@H]1CO` | 3.746% |
| `Cn1cnc(S(=O)(=O)N(CC(N)=O)C2CCCC2)c1Cl` | -12.12% |
| `CCOc1ncccc1CNC(=O)c1[nH]ncc1Br` | 52.13% |
| `CN(CCc1ccccn1)CC(=O)NC1CC1` | 6.204% |
| `CN(CC(N)=O)Cc1ccccc1N1CCCC1` | 55.75% |
| `N#CCC(=O)NCCNC(=O)c1ccccc1` | -11.39% |
| `CC(=O)Nc1nc(COc2ccccc2C(N)=O)cs1` | 24.91% |
| `CCSc1ccccc1NC(=O)NCCNC(C)=O` | 26.65% |
| `Cc1cnc(C(=O)NCc2ccc(C)n2C)cn1` | 44.34% |
| `CN(C)c1ccc(CNS(C)(=O)=O)cc1` | 8.789% |
| `CC(C)[C@H](N)C(=O)N1CCN(c2ccncc2Cl)CC1` | 7.387% |
| `CS(=O)(=O)N1CCCN(Cc2nccn2C2CC2)CC1` | 4.489% |
| `CC1(C(=O)NCC(CO)Cc2cccs2)CCNCC1` (stereo unspecified) | 8.209% |
| `COc1ccc(C2NCCNC2=O)cc1` (stereo unspecified) | -0.5437% |
| `CNC(=O)COC(=O)Cc1ccc(Br)cc1` | 52.51% |
| `CCN1CCN(CC(=O)Nc2cc(C)cc(C)c2)CC1` | 42.82% |
| `NCCc1nsc2ccccc12` | 80.48% |
| `COc1ccc2c(c1)NCC(C)O2` (stereo unspecified) | 66.67% |
| `CCOC(=O)N1CCN(C(=O)C(C)CC)CC1` (stereo unspecified) | 11.22% |
| `O=C1CN(CC2CCNC2)CCN1` (stereo unspecified) | 0.8873% |
| `COc1ccnc(C(=O)N(C)Cc2cnccn2)c1` | 9.012% |
| `CNC(=O)CSCc1ccc2ccccc2n1` | -9.011% |
| `CCNCCNC(=O)Cc1ccc(F)cc1F` | -0.6015% |
| `Cc1nnc(CCNC(=O)c2c(C)nn(C)c2C)s1` | -9.067% |
| `CNS(=O)(=O)c1ccc2c(c1)oc(=O)n2C` | 2.01% |
| `CC(C)[C@@H](CO)NCc1ncn(-c2ccccc2)n1` | 5.321% |
| `COCCc1noc(CN2CC[C@H](CO)[C@H](O)C2)n1` | 7.656% |
| `COC(=O)c1cc(C)sc1N1C(=O)C=CC1=O` | 4.179% |
| `CN1CCN(C(=O)c2cc3c(F)cccc3s2)CC1` | 62.74% |
| `COCc1nc(C)cc(N(C)Cc2ccc(N)nc2)n1` | 28.16% |
| `CS(=O)(=O)Cc1ccccc1CN` | 0.9702% |
| `N#Cc1cccc(C(=O)NCCCN2CCCC2)c1` | 15.63% |
| `c1nsnc1-c1nc(C2CCCO2)no1` (stereo unspecified) | 50.93% |
| `CCNC(=O)[C@@H]1C[C@H](N)CN1c1nc(C)ncc1CC` | 5.842% |
| `C/N=C1\SC(CC(=O)Nc2cccc(Cl)c2)C(=O)N1C` (stereo unspecified) | -13.46% |
| `CO[C@H]1[C@@H]2CC[C@H]1CN(C(=O)c1nc(C)c[nH]1)C2` | 18.93% |
| `O=c1c2ccccc2cnn1CN1CCCC1` | 63.89% |
| `CN(C)C(=O)N1CCN(C(=O)CN)CC1` | -0.8953% |
| `COc1ccc(C(N)CO)c2ccccc12` (stereo unspecified) | 59.19% |
| `N#Cc1ccsc1C(=O)N1CCN(CCO)CC1` | -4.463% |
| `CC(NC(=O)c1cc(N(C)C)ccn1)c1ncon1` (stereo unspecified) | 1.797% |
| `Cc1nc(C)c(CC(=O)NCC2CNCCO2)s1` (stereo unspecified) | -3.318% |
| `CN(C)C(=O)N1CCN(CC2CCCCO2)CC1` (stereo unspecified) | 11.11% |
| `O=C(CN1CCC(CO)CC1)N1CCc2sccc2C1` | 11.19% |
| `COCC(=O)N1CCN(CC2CCCCC2)CC1` | 10.01% |
| `CC(C)N1CCC(NC(=O)C2=NN(C)C(=O)CC2)CC1` | -7.543% |
| `CN(CC(=O)N1CCOCC1)Cc1ccc(Br)o1` | 9.45% |
| `COc1cc(OC)cc(C2(F)CCNCC2)c1` | 54.53% |
| `CC(c1ccncc1)N(C)Cc1ccc(CO)o1` (stereo unspecified) | -9.01% |
| `COc1ccc(NC(=O)CC2CCN(C)CC2)cc1` | 26.05% |
| `c1ccc(CN2CCCCC2CN2CCOCC2)nc1` (stereo unspecified) | 0.5323% |
| `COc1cccc(NC(=O)Cn2cncn2)c1` | -13.43% |
| `CCc1cc(C(=O)NCC2CCCNC2)cc(=O)[nH]1` (stereo unspecified) | -2.995% |
| `COc1ccc(C(=O)N2CCNCC2)c(OC)c1` | -5.936% |
| `N[C@@H](CO)C(=O)N1CCC(Cc2ccc(F)cc2)CC1` | 53.03% |
| `Cc1noc(C(C)N2CCC(C)CC2)n1` (stereo unspecified) | -2.154% |
| `FC(F)(F)Cn1cccn1` | -11.57% |
| `NS(=O)(=O)NCC1(c2ccc(Br)cc2)CCOCC1` | 18.71% |
| `O=C(Cc1cc(F)ccc1F)NCC1CCNC1` (stereo unspecified) | 3.44% |
| `CC(=O)N1CCN(C(=O)CCc2cc(Cl)cs2)CC1` | 40.38% |
| `CN(C)S(=O)(=O)c1cccc(CN2CCCC(O)C2)c1` (stereo unspecified) | 8.776% |
| `c1ccc2[nH]c(C3CNC3)nc2c1` | 31.53% |
| `O=S(=O)(NCC(O)CN1CCCC1)C1CCCCC1` (stereo unspecified) | 38.75% |

The first 7 entries again:

structure,effect
COC(C)(C)C(=O)NCc1ccnc(NC2CC2)c1,7.01%
COc1ccccc1CCNC(=O)NC[C@H](C)O,15.95%
CCNc1ncc(C(=O)N2CCSCC2)cn1,28.84%
CNc1snc(C)c1C(=O)N1CCN(C2CC2)CC1,-0.6201%
COc1cc(Br)ccc1CN,7.963%
COc1c(C(=O)N2CCN(C)CC2)sc2ccccc12,45.1%
C[C@@]1(O)CCN(C(=O)CCc2cn[nH]c2)C[C@@H]1O,5.87%